Measured values reported in PubChem BioAssay AID504720 (Sanford-Burnham Center for Chemical Genomics, 2011).
Only a part is listed here, and it is no random draw. Some structures show a salt or complex split into parts, the way the source records it. Active and inactive are the calls of the source. No stated cut-off is given here; in the data, active means activation above about 50%; inactive means the rest.

Amino acid sequences for entries named in this document (tags omitted).
UniProt P0AE70, whole entry, looked up: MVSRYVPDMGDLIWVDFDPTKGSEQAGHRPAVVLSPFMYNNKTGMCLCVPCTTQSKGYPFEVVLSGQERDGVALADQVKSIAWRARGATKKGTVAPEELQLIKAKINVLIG

The compounds below were run against Endoribonuclease toxin MazF (Escherichia coli (strain K12)) (UniProt P0AE70) (assay: activators of E. coli MazEF toxin-antitoxin RNase, primary screen, biochemical, fluorescence, uHTS (AID 504720)). Conditions: FAM/BHQ RNA-DNA oligo cleavage fluorescence, 5 h, at 20 µM, active compounds read high.

| SMILES | activation |
| --- | --- |
| CP(=O)(Nc1ccccc1F)Oc1ccccc1 (stereo not drawn) | inactive: -14.3% |
| CC(C)c1ccc(OP(C)(=O)Nc2ccc(SC(F)(F)F)cc2)cc1 (stereo not drawn) | inactive: 2.66% |
| O=C(OC1CN2CCC1CC2)c1ccc([N+](=O)[O-])cc1 (stereo not drawn) | inactive: 2.98% |
| O=C(OCCN1CCN(CCOCc2ccccc2)CC1)C(O)(c1ccccc1)c1ccccc1 | inactive: 0.15% |
| COc1ccc2c(c1O)-c1c(O)c(OC)cc3c1[C@H](C2)[N+](C)(C)CC3.O=[N+]([O-])c1cc([N+](=O)[O-])c([O-])c([N+](=O)[O-])c1[O-] | inactive: 1.44% |
| COc1ccccc1OP(C)(=O)Nc1cccc(Br)c1 (stereo not drawn) | inactive: 11.6% |
| CCOC(=O)c1ccc(NP(C)(=O)Oc2cc(C)cc(C)c2)cc1 (stereo not drawn) | inactive: -10.1% |
| Cc1cc(C)cc(OP(C)(=O)Nc2ccc(C)cc2C)c1 (stereo not drawn) | inactive: -1.84% |
| Cc1ccc(C)c(NP(C)(=O)Oc2ccccc2)c1 (stereo not drawn) | inactive: 3.71% |
| Cc1cc(C)cc(OP(C)(=O)Nc2ccccn2)c1 (stereo not drawn) | inactive: -0.565% |
| CP(=O)(Nc1cccc(Br)c1)Oc1ccccc1 (stereo not drawn) | inactive: -3.71% |
| O=C(O)c1cccc(Nc2c([N+](=O)[O-])cc([N+](=O)[O-])cc2[N+](=O)[O-])c1 | inactive: -2.08% |
| CC1=NCCc2c1[nH]c1ccccc21.O=[N+]([O-])c1cc([N+](=O)[O-])c(O)c([N+](=O)[O-])c1 | inactive: -5.97% |
| CC1=C2N=C(C=C3N=C(C(C)=C4[N-][C@@](C)([C@@H]5N=C1[C@](C)(CCC(=O)NC[C@@H](C)OP(=O)([O-])O[C@H]1[C@@H](O)[C@@H](n6cnc7cc(C)c(C)cc76)O[C@@H]1CO)[C@H]5CC(N)=O)[C@@](C)(CC(N)=O)[C@@H]4CCC(N)=O)[C@@](C)(CC(N)=O)[C@@H]3CCC(N)=O)C(C)(C)[C@@H]2CCC(N)=O.[C-]#N.[Co+3] | inactive: -32% |
| O=[N+]([O-])c1cc([N+](=O)[O-])c(Nc2nnnn2CCO)c([N+](=O)[O-])c1 | inactive: -1.41% |
| CCOC(=O)C(CC)C1=NC(C)(C)Cc2ccccc21.O=[N+]([O-])c1cc([N+](=O)[O-])c(O)c([N+](=O)[O-])c1 (stereo not drawn) | inactive: 1.24% |
| CN1CCCCC1COC(=O)C1(O)c2ccccc2CCc2ccccc21 (stereo not drawn) | inactive: -4.25% |
| COc1ccccc1OP(C)(=O)Nc1c(C)cccc1C (stereo not drawn) | inactive: 6.06% |
| CCCOc1ccc(NP(C)(=O)Oc2ccc(Cl)cc2)cc1 (stereo not drawn) | inactive: 5.5% |
| CP(=O)(Nc1ccc(SC(F)(F)F)cc1)Oc1ccccc1 (stereo not drawn) | inactive: -3.78% |
| O=[N+]([O-])c1cc([N+](=O)[O-])c(-n2nnc3ccccc32)c([N+](=O)[O-])c1 | inactive: 0.227% |
| O=[N+]([O-])c1cc([N+](=O)[O-])c(-c2cnn(-c3ccccc3)c2)c([N+](=O)[O-])c1 | inactive: 2.98% |
| Cc1nc2ccc3ccccc3c2s1.O=[N+]([O-])c1cc([N+](=O)[O-])c(O)c([N+](=O)[O-])c1 | inactive: -1.87% |
| CP(=O)(Nc1ccc(SC(F)(F)F)cc1)Oc1ccc(Cl)cc1 (stereo not drawn) | inactive: 0.952% |

| SMILES | activation |
| --- | --- |
| Cc1cccc(C)c1OP(C)(=O)Nc1ccc(SC(F)(F)F)cc1 (stereo not drawn) | inactive: -5.02% |
| Cc1ccc(Nc2c([N+](=O)[O-])cc([N+](=O)[O-])cc2[N+](=O)[O-])cc1 | inactive: 7.99% |
| CP(=O)(Oc1ccccc1)OC(c1ccccc1)C(F)(F)F (stereo not drawn) | inactive: 14.4% |
| CP(=O)(NC(=O)Nc1ccccc1)Oc1ccccc1 (stereo not drawn) | inactive: -6.65% |
| CCc1ccc(OP(C)(=O)N2CCN(c3ccc([N+](=O)[O-])cc3)CC2)cc1 (stereo not drawn) | inactive: 7.2% |
| Cc1cc(C)cc(OP(C)(=O)Nc2ccc(SC(F)(F)F)cc2)c1 (stereo not drawn) | inactive: 2.71% |
| O=[N+]([O-])c1cc([N+](=O)[O-])c(O)c([N+](=O)[O-])c1.c1ccc(Oc2ccncc2)cc1 | inactive: 11.4% |
| CCOC(=O)c1ccc(NP(C)(=O)Oc2ccc(OC)cc2)cc1 (stereo not drawn) | inactive: -3.51% |
| CCOP(C)(=S)SCC(=O)NC(C)C(=O)O (stereo not drawn) | inactive: 2.9% |
| CP(=O)(Nc1ccccn1)Oc1ccc(Cl)cc1 (stereo not drawn) | inactive: -8.19% |
| CP(=S)(Nn1cnnc1)Oc1ccccc1 (stereo not drawn) | inactive: -2.03% |
| CP(=O)(Nc1ccccc1Br)Oc1ccccc1 (stereo not drawn) | inactive: 1.32% |
| COc1ccccc1OP(C)(=O)Nc1ccccc1 (stereo not drawn) | inactive: 9.3% |
| O=[N+]([O-])c1cc([N+](=O)[O-])c(Nc2cccnc2)c([N+](=O)[O-])c1 | inactive: 3.95% |
| O=[N+]([O-])c1ccc2c(c1)C=Nc1ccccc1O2 | inactive: 0.438% |
| CC(C)(C)c1ccc(OP(C)(=O)Nc2ccc(SC(F)(F)F)cc2)cc1 (stereo not drawn) | inactive: -6.16% |
| Cc1cccc(C)c1OP(C)(N)=O (stereo not drawn) | inactive: 4.79% |
| COc1ccccc1OP(C)(=O)Nc1ccc(C)cc1 (stereo not drawn) | inactive: -4.33% |
| Cc1ccc(NP(C)(=O)Oc2ccccc2)c(C)c1 (stereo not drawn) | inactive: 2.22% |
| CCOC(=O)c1ccc(NP(C)(=O)Oc2ccccc2)cc1 (stereo not drawn) | inactive: 3.84% |
| Cc1cc(C)cc(OP(C)(N)=O)c1 (stereo not drawn) | inactive: -13.8% |
| COc1ccccc1OP(C)(=O)Nc1cc(Cl)ccc1C (stereo not drawn) | inactive: -0.08% |
| COc1ccc(OP(C)(=O)Nc2cccc(F)c2)cc1 (stereo not drawn) | inactive: 7.54% |
| CCN(CC)CCCOC(=O)C(O)(c1ccccc1)c1ccccc1 | inactive: 8.7% |
